In patent US3945994A, “Novel acid compounds” (Gist-Brocades N.V., priority 1973, dated 1976):

Key:
Assay in all cases: agar serial dilution test, MIC
Conditions in all cases: 24 hours at 37°C
[1] = system: Staphylococcus aureus A 355'; format: cell-based
[2] = system: Diplococcus pneumoniae L 54; format: cell-based
Proteus mirabilis A 1200 = format: cell-based
[3] = system: Pasteurella multocida A 723; format: cell-based
[4] = system: Klebsiella pneumoniae A 809; format: cell-based
[5] = system: Pseudomonas aeruginosa 2396; format: cell-based
[6] = system: Streptococcus faecalis L 80; format: cell-based
[7] = system: Pseudomonas aeruginosa H 10; format: cell-based
[8] = system: Staphylococcus aureus A 321; format: cell-based
[9] = system: Staphylococcus aureus A 2001; format: cell-based
[10] = system: Pseudomonas aeruginosa Wyeth A 1058; format: cell-based
[11] = system: Salmonella typhimurium R172; format: cell-based
[12] = system: Staphylococcus aureus A 2000; format: cell-based
Escherichia coli U 20 = format: cell-based
[13] = system: Streptococcus haemolyticus A 1088; format: cell-based
Brucella suis A 1088 = system: Brucella suis A 1088
Shigella equirulis T 3 = system: Shigella equirulis T 3
Proteus morganii 2241 = format: cell-based
Proteus mirabilis H 3 = format: cell-based
[14] = system: Salmonella typhimurium R 127; format: cell-based
[15] = system: Streptococcus haemolyticus A 266; format: cell-based
Proteus rettgeri A 821 = format: cell-based
Salmonella dublin P 43 = format: cell-based
Proteus mirabilis L 93 = system: Proteus mirabilis L 93
[16] = system: Brucella melitensis A 488
[17] = system: Haemophilus influenzae A 1030; format: cell-based

Row | Compound | MIC [1] [mg/L] | MIC [2] [mg/L] | MIC (Proteus mirabilis A 1200) [mg/L] | MIC [3] [mg/L] | MIC [4] [mg/L] | MIC [5] [mg/L] | MIC [6] [mg/L] | MIC [7] [mg/L] | MIC [8] [mg/L] | MIC [9] [mg/L] | MIC [10] [mg/L] | MIC [12] [mg/L] | MIC (Escherichia coli U 20) [mg/L] | MIC [13] [mg/L] | MIC (Brucella suis A 1088) [mg/L] | MIC (Shigella equirulis T 3) [mg/L] | MIC (Proteus morganii 2241) [mg/L] | MIC (Proteus mirabilis H 3) [mg/L] | MIC (Proteus rettgeri A 821) [mg/L] | MIC (Salmonella dublin P 43) [mg/L] | also measured
1 | CC1(C)S[C@@H]2[C@H](NC(=O)[C@H](NC(=O)NP(=O)(OCc3ccccc3)c3ccccc3)c3ccccc3)C(=O)N2[C@H]1C(=O)O (stereo partly shown) | 3 (≈ 4.82 µM) | 0.12 (≈ 0.193 µM) | 6 (≈ 9.64 µM) | 1.5 (≈ 2.41 µM) | 25 (≈ 40.2 µM) | 25 (≈ 40.2 µM) | 3 (≈ 4.82 µM) | 50 (≈ 80.3 µM) | 0.75 (≈ 1.2 µM) | 3 (≈ 4.82 µM) | 25 (≈ 40.2 µM) | 3 (≈ 4.82 µM) | 25 (≈ 40.2 µM) | 0.06 (≈ 0.0964 µM) | 1.5 (≈ 2.41 µM) | 3 (≈ 4.82 µM) |  |  |  |  | MIC [11]: 25 mg/L (≈ 40.2 µM)
2 | D-6-[α-{3-(5-methyl-1,2,4-oxadiazol-3-yl-methylamino-sulfonyl)-ureido}-benzylcarbonamido]-penicillanic acid |  |  | 1.5 | 3 | 50 | 50 | 25 | 100 |  |  |  |  | 6 | 0.5 | 3 |  | 6 | 1.5 |  |  | MIC [11]: 25 mg/L
3 | CC1(C)S[C@@H]2[C@H](NC(=O)[C@H](NC(=S)NP(=S)(Oc3ccccc3)Oc3ccccc3)c3ccccc3)C(=O)N2[C@H]1C(=O)O |  |  | 25 (≈ 38.1 µM) | 1.5 (≈ 2.28 µM) | 100 (≈ 152 µM) | > 100 | 25 (≈ 38.1 µM) | > 100 | 1.5 (≈ 2.28 µM) | 3 (≈ 4.57 µM) | > 100 |  | 100 (≈ 152 µM) |  |  |  | > 100 | 50 (≈ 76.1 µM) | 25 (≈ 38.1 µM) | 100 (≈ 152 µM) | MIC [14]: 100 mg/L (≈ 152 µM); MIC [15]: 0.3 mg/L (≈ 0.457 µM); MIC (Proteus mirabilis L 93): 3 mg/L (≈ 4.57 µM); MIC [16]: 1.5 mg/L (≈ 2.28 µM)
4 | CC1(C)S[C@@H]2[C@H](NC(=O)[C@H](NC(=O)NP(=O)(O)O)c3ccccc3)C(=O)N2[C@H]1C(=O)O |  | 6 (≈ 12.7 µM) |  | 0.75 (≈ 1.59 µM) | 100 (≈ 212 µM) | 6 (≈ 12.7 µM) |  |  |  |  | 1.5 (≈ 3.18 µM) |  | 3 (≈ 6.35 µM) | 0.75 (≈ 1.59 µM) | 1.5 (≈ 3.18 µM) | 1.5 (≈ 3.18 µM) |  |  |  | 0.75 (≈ 1.59 µM) | 
5 | CCOP(=O)(NC(=O)N[C@@H](C(=O)N[C@@H]1C(=O)N2[C@@H]1SC(C)(C)[C@@H]2C(=O)O)c1ccccc1)OCc1ccccc1 (stereo partly shown) | 6 (≈ 10.2 µM) | 0.25 (≈ 0.423 µM) | 1.5 (≈ 2.54 µM) | 0.5 (≈ 0.847 µM) | 25 (≈ 42.3 µM) | 25 (≈ 42.3 µM) | 6 (≈ 10.2 µM) | 50 (≈ 84.7 µM) | 0.5 (≈ 0.847 µM) | 6 (≈ 10.2 µM) | 50 (≈ 84.7 µM) | 6 (≈ 10.2 µM) |  |  | 1.5 (≈ 2.54 µM) | 6 (≈ 10.2 µM) |  | 3 (≈ 5.08 µM) |  | 3 (≈ 5.08 µM) | 
6 | CC1(C)S[C@@H]2[C@H](NC(=O)[C@H](NC(=O)NP(=O)(OCc3ccccc3)OCc3ccccc3)c3ccccc3)C(=O)N2[C@H]1C(=O)O | 6 (≈ 9.19 µM) | 0.5 (≈ 0.766 µM) | 3 (≈ 4.6 µM) | 0.5 (≈ 0.766 µM) | 25 (≈ 38.3 µM) | 25 (≈ 38.3 µM) |  | 50 (≈ 76.6 µM) | 0.75 (≈ 1.15 µM) |  | 50 (≈ 76.6 µM) | 6 (≈ 9.19 µM) | 6 (≈ 9.19 µM) | 0.25 (≈ 0.383 µM) | 1.5 (≈ 2.3 µM) | 3 (≈ 4.6 µM) |  | 3 (≈ 4.6 µM) |  |  | MIC [11]: 25 mg/L (≈ 38.3 µM)
7 | CC1(C)S[C@@H]2[C@H](NC(=O)[C@H](NC(=S)NP(=O)(c3ccccc3)c3ccccc3)c3ccccc3)C(=O)N2[C@H]1C(=O)O | 50 (≈ 82.1 µM) | 0.5 (≈ 0.821 µM) | 50 (≈ 82.1 µM) | 3 (≈ 4.93 µM) | > 100 | > 100 |  | > 100 | 3 (≈ 4.93 µM) |  | > 100 |  | 25 (≈ 41.1 µM) |  |  |  | > 100 | 50 (≈ 82.1 µM) | 6 (≈ 9.86 µM) | 50 (≈ 82.1 µM) | MIC [14]: 100 mg/L (≈ 164 µM); MIC [15]: 0.1 mg/L (≈ 0.164 µM); MIC [17]: 2 mg/L (≈ 3.29 µM); MIC (Proteus mirabilis L 93): 6 mg/L (≈ 9.86 µM); MIC [16]: 0.5 mg/L (≈ 0.821 µM)
8 | CCOP(=O)(NC(=O)N[C@@H](C(=O)N[C@@H]1C(=O)N2[C@@H]1SC(C)(C)[C@@H]2C(=O)O)c1ccccc1)OCC |  | 0.5 (≈ 0.946 µM) | 6 (≈ 11.4 µM) | 3 (≈ 5.68 µM) | 1.0 (≈ 1.89 µM) | 50 (≈ 94.6 µM) |  | 3 (≈ 5.68 µM) | 1.5 (≈ 2.84 µM) | 6 (≈ 11.4 µM) | 50 (≈ 94.6 µM) |  | 25 (≈ 47.3 µM) |  |  | 50 (≈ 94.6 µM) | 6 (≈ 11.4 µM) | 25 (≈ 47.3 µM) | 3 (≈ 5.68 µM) |  | MIC [15]: 6 mg/L (≈ 11.4 µM); MIC [17]: 100 mg/L (≈ 189 µM); MIC [16]: 90 mg/L (≈ 170 µM)
9 | CCOP(=O)(NC(=S)N[C@@H](C(=O)N[C@@H]1C(=O)N2[C@@H]1SC(C)(C)[C@@H]2C(=O)O)c1ccccc1)OCC | 100 (≈ 184 µM) | 0.5 (≈ 0.918 µM) |  | 1 (≈ 1.84 µM) | 0.5 (≈ 0.918 µM) | > 100 | 100 (≈ 184 µM) | 0.5 (≈ 0.918 µM) | 3 (≈ 5.51 µM) | 1.0 (≈ 1.84 µM) | > 100 | 50 (≈ 91.8 µM) | 6 (≈ 11 µM) |  |  | 100 (≈ 184 µM) | 25 (≈ 45.9 µM) | 50 (≈ 91.8 µM) | > 100 | > 100 | MIC [15]: 0.25 mg/L (≈ 0.459 µM); MIC [17]: > 100 mg/L; MIC (Proteus mirabilis L 93): 3 mg/L (≈ 5.51 µM)
10 | CC1(C)S[C@@H]2[C@H](NC(=O)[C@H](NC(=O)NP(=O)(O)c3ccccc3)c3ccccc3)C(=O)N2[C@H]1C(=O)O |  | 0.5 (≈ 0.939 µM) | 3 (≈ 5.63 µM) |  |  |  |  | 50 (≈ 93.9 µM) | 0.75 (≈ 1.41 µM) | 6 (≈ 11.3 µM) | 50 (≈ 93.9 µM) | 6 (≈ 11.3 µM) |  |  | 1.5 (≈ 2.82 µM) | 1.5 (≈ 2.82 µM) | 6 (≈ 11.3 µM) | 3 (≈ 5.63 µM) |  | 6 (≈ 11.3 µM) | 
11 | CC1=C(C(=O)O)N2C(=O)[C@@H](NC(=O)[C@H](NC(=O)NP(=O)(O)OCC(C)C)c3ccccc3)[C@H]2SC1 | 50 (≈ 95 µM) |  | > 100 |  | 25 (≈ 47.5 µM) | > 100 | > 100 | > 100 |  |  | > 100 | 25 (≈ 47.5 µM) | 100 (≈ 190 µM) | 3 (≈ 5.7 µM) | 50 (≈ 95 µM) | 6 (≈ 11.4 µM) | > 100 | > 100 | 3 (≈ 5.7 µM) | 50 (≈ 95 µM) | MIC [11]: 100 mg/L (≈ 190 µM); MIC (Proteus mirabilis L 93): 25 mg/L (≈ 47.5 µM)
12 | CC1=C(C)CP(=O)(NC(=O)N[C@@H](C(=O)N[C@@H]2C(=O)N3[C@@H]2SC(C)(C)[C@@H]3C(=O)O)c2ccccc2)C1 | 6 (≈ 11.5 µM) | 0.25 (≈ 0.48 µM) | 6 (≈ 11.5 µM) | 0.75 (≈ 1.44 µM) | 25 (≈ 48 µM) | 50 (≈ 96.1 µM) | 6 (≈ 11.5 µM) | 100 (≈ 192 µM) | 0.75 (≈ 1.44 µM) | 6 (≈ 11.5 µM) | 50 (≈ 96.1 µM) | 6 (≈ 11.5 µM) |  | 0.12 (≈ 0.231 µM) | 1.5 (≈ 2.88 µM) | 1.5 (≈ 2.88 µM) |  |  |  | 6 (≈ 11.5 µM) | MIC [11]: 25 mg/L (≈ 48 µM); MIC (Proteus mirabilis L 93): 1.5 mg/L (≈ 2.88 µM)
13 | CCOP(=S)(NC(=S)N[C@@H](C(=O)N[C@@H]1C(=O)N2[C@@H]1SC(C)(C)[C@@H]2C(=O)O)c1ccccc1)OCC | > 100 | 3 (≈ 5.35 µM) | > 100 | 6 (≈ 10.7 µM) | > 100 | > 100 | 50 (≈ 89.2 µM) | > 100 | 3 (≈ 5.35 µM) |  | > 100 | 25 (≈ 44.6 µM) | > 100 |  |  | 25 (≈ 44.6 µM) | > 100 | > 100 | > 100 | > 100 | MIC [14]: > 100 mg/L; MIC [15]: 0.5 mg/L (≈ 0.892 µM); MIC (Proteus mirabilis L 93): 25 mg/L (≈ 44.6 µM); MIC [16]: 6 mg/L (≈ 10.7 µM)

≈ marks a conversion by molar mass, not a printed value.
